# Screening data, single-dose tests

Data taken from ChEMBL document CHEMBL3988442, “University of Dundee, Small-Polar-MMV Screening Library” (2021).

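Growth of Mycobacterium tuberculosis over 3 days (7H9 medium with glucose and tyloxapol); the read-out is not stated. Tested at 50 µM. Direction is inferred from retests: higher values go with more growth inhibition. Size under these conditions: about 69,000 compounds, about 760 of them at 50% or above in at least one test.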

Each number is a percent effect as filed.
How 0% and 100% were set is not recorded. Most values in the screen are low, and negative values occur.
Many other results are left out here, so strong results are more common than in the screen.
Two or more numbers in one place are separate tests of the same structure; such repeats can differ widely.

compound	percent effect
CC(NC(=O)CNc1cc2c(cc1Cl)NC(=O)CO2)c1ccco1 (centres undefined)	-23.33
CCN(CC)c1ccc(C(=O)NCC2(C(N)=O)CCOCC2)cn1	-36.86 & -2.658
CC(C)Cc1nc(CN(C)c2cc(C(C)C)nc3ccnn23)no1	39.14
CCOCCNc1nc(-c2ccncc2)nc2c1CCNCC2	-12.9 & 1.537
c1ccc(CN2CCN(c3ccc4nncn4n3)CC2)nc1	27.9
COCCC(=O)N1CCCC(CCC(=O)NCc2ccccc2F)C1 (centres undefined)	-1.185
Cc1ccc(S(=O)(=O)N2CCc3nc(C4CCNCC4)ncc3C2)cc1.Cl	77.19
CC(=O)c1ccc(Nc2nc(N)nc3c2nc(C)n3C)cc1	-23.21
CC(C)Oc1ccc(CNC(=O)C2CCC(=O)N2)cn1 (centres undefined)	-59.12
Cc1ccccc1N1CCN(CCS(=O)(=O)c2ccc(Br)cc2)CC1	18.42
CC1(C)OC(=O)N(CCCC(=O)c2ccc(F)cc2)C1=O	23.88
Cc1cnn(CC(=O)NCC2(O)CCCc3ccccc32)c1 (centres undefined)	-7.338
Cc1cc2c(cc1NC(=O)NCC(C)C)OCO2	-22.19 & -1.959
Cc1cnn(CCNc2cnc3ccccc3n2)c1	5.619
Cc1cc(-c2noc(C3CCS(=O)(=O)C3)n2)ccc1F (centres undefined)	23.82 & 8.367
CC(O)CCN(C)C(=O)Nc1cc(F)cc(Br)c1 (centres undefined)	10.14 & 21.84
Cc1noc(C2CCC3(CCN(C(=O)c4cc(C5CC5)on4)CC3)O2)n1 (centres undefined)	1.111
Clc1cc(CN2CCCC(Cn3cncn3)C2)c2ncccc2c1 (centres undefined)	14.66 & 12.28
COC(=O)COn1c(SC)nc2ccccc2c1=O	45.96
NC(=O)CN1CCOCC(Cc2ccccc2)C1 (centres undefined)	-4.841
CCN(CC)CC(=O)NCCc1csc(N2CCCC2)n1	5.74
Cc1ccc(NCc2ncc(C(C)(C)C)o2)c(Cl)c1	50.45 & 31.61
NC(=O)c1cnc(NC2CCN(c3ccccc3)CC2)c(Cl)c1	14.98 & 2.085
CN(C(=O)Cn1nnnc1C(C)(C)C)c1ccccc1	5.804
O=C(C1CC1)N1CCN(C(=O)C2CC(=O)N(c3ccccc3Br)C2)CC1 (centres undefined)	-36.04
CC[C@@H](CO)Nc1cc(-c2cn[nH]c2)ncn1	-8.733
CC(C)CN1Cc2nc(N3CCC(O)CC3)ncc2C1=O	2.032
CCc1ccccc1CN1CCC(N2CCCC2=O)CC1	17.26
Cc1cnn(C2CN(Cc3noc(C4CC4)n3)C2)c1	2.973
CCOc1cccc2c1OCC(C(=O)NS(=O)(=O)c1ccc(Cl)cc1)=C2	-18.91
O=C(O)C(F)(F)F.[H][C@]12CCCN(Cc3nccs3)[C@@]1([H])CN(S(C)(=O)=O)C2	-22.75 & -14.68
O=S(=O)(Cc1ccc(Br)cc1)NCCO	-3.975 & 69.73
CNc1ncc(C(=O)N2CCC(c3ccccc3C(=O)O)C2)cn1 (centres undefined)	-0.3444 & -11.47
COc1ccc(S(=O)(=O)NCc2cccnc2N(C)C)cc1	-14.04
c1ccc2c(N3CCOC(Cn4cccn4)C3)ncnc2c1 (centres undefined)	-1.439
Cc1noc(NC(=O)c2ccc(Br)s2)n1	68.23
c1ccc(C2CN(C3CC3)CC3(CCN(Cc4ncc[nH]4)CC3)C2)cc1 (centres undefined)	9.776 & 7.722
c1ccc(-c2noc([C@@H]3Cc4nc[nH]c4CN3)n2)cc1	30.78 & 11.62
CN(C(=O)Cc1coc(-c2ccccc2)n1)C1(C#N)CCC1	-1.799
Cc1ccc(CN2CCN(C(=O)c3ccc(Br)o3)CC2)cc1	68.82
O=C(NCC1(c2ccc(F)cc2)CCC1)N1CCC2(CCOCC2)C1	2.586 & -8.076
NC(=O)NC(=O)CCN(Cc1ccccc1)CC1CCOCC1	84.62
CC(C)(CO)Nc1ccc(-c2nc(-c3ccccc3F)no2)cn1	12.95 & 16.84
Cc1cccc(OCCCN2CCC(N(C)Cc3noc(C)n3)C2)c1 (centres undefined)	17.61
Cc1cccc(NC2CCN(C(=O)Nc3ccc(F)c(F)c3)CC2)n1	24.36 & 53.54
CN(Cc1nc2ccccc2n1C)CC1CCCN1c1cccnn1 (centres undefined)	58.48
O=C(NC1CC1)C1CCCN(c2cccc(C(F)(F)F)n2)C1 (centres undefined)	45.74
CN(C)c1ncccc1CNS(=O)(=O)c1cc(F)cc(F)c1	5.069
CCOc1cc(F)ccc1NC1CCN(CC(F)(F)F)C1=O (centres undefined)	55.56
CCc1cc(CNC(=O)N(C2CC2)C(C)c2ccco2)[nH]n1 (centres undefined)	21.09
Cn1ccnc1CN1CCC2(CC(=O)N(c3cncnc3)C2)C1.O=C(O)C(F)(F)F (centres undefined)	62.97
CCN(CC)CCn1c(NC(=O)c2scnc2C)nc2ccccc21	9.543
CCCn1c(N2CCCC2)nc2c(C)nn(C)c2c1=O	-0.1332
O=C(NCCNc1ccccn1)NCC1CCS(=O)(=O)C1 (centres undefined)	-34.69 & -7.742
CCc1[nH]c2c(CNc3cncc(C(=O)N(C)C)n3)cc(C)cc2c1C	-14.58
CCCNC(=O)NC(=O)CNC(C)(C)c1ccc2c(c1)OCCO2	71.97 & 78.37
CCOc1ccc(NC(=O)NCCS(=O)(=O)CC)cc1C	-26.24
Cc1ccc(C(=O)NCCCC2(C3OCCO3)CCOCC2)cc1C	7.269 & 12.26
CN1CCN(C(=O)NC2CC2)Cc2cccnc21.O=C(O)C(F)(F)F	-0.2836
COC(=O)CN(C)Cc1cc(Br)cs1	-2.206
Nc1cc(N2CCCC(CO)(Cc3ccccc3F)C2)nc(N)n1 (centres undefined)	69.86
COc1ccc2nnc(C(=O)NCC3CCCC3)nc2c1	50.58 & 35.08
Nc1nnnn1NCc1cccc(Cl)c1Cl	63.32
c1cncc(-c2ccc3c(c2)CCC32CCNCC2)c1	25.51 & 53.06
O=C1C(n2nnc(-c3cccs3)n2)CCN1CC(F)(F)F (centres undefined)	38.14
CCSc1ncc(CN2CCN(c3nc(C)cnc3C)CC2)cn1	28.11
CCc1cc(N(C)Cc2ccncn2)n2nc(C)c(C)c2n1	77.46
Cc1nc(C)n(CC2CCCN2CC(=O)Nc2nncs2)n1 (centres undefined)	52.95
CC(Cn1cccn1)NS(=O)(=O)Cc1ccc(F)cc1 (centres undefined)	-18.68
c1ccc(C2CN(C3CC3)CC3(CCN(Cc4cscn4)CC3)C2)cc1 (centres undefined)	66.67 & 48.16
CCC(C)(C)NC(=O)c1nnn(-c2cccc3c2CCN(C)C3)c1C	9.658
COC(=O)CCC(=O)N1CCC2(CN(Cc3ccccc3)C2)C1	-40.34
CCc1ccc(CN(C)C(=O)c2ccc(CSc3nnc[nH]3)o2)nc1	-10.09 & 0.01054
CC(C)c1cc(N(C)Cc2cc(C3CC3)on2)n2nccc2n1	28.54
O=C(c1ccc(Br)s1)N1CCN(Cc2ccc(OC(F)(F)F)cc2)CC1	10.07 & 27.83
COc1ncc(C(=O)NCc2ccc(Br)cc2)cn1	19.36
Cc1ccccc1OCC(O)CN1CCC(c2ccn[nH]2)CC1 (centres undefined)	-7.618
O=C(c1cc(C2CC2)on1)N1CCC(Oc2ncccc2Cl)CC1	42.19 & 41.79
CS(=O)(=O)NCC1CCCN(c2ccc(C(F)(F)F)cn2)C1 (centres undefined)	22.77
Brc1ccc(NCc2ccc(Cn3ccnc3)cc2)nc1	70.19
COc1ccc(Oc2cccnc2)cc1CN1CCCC1	-38.58 & 3.228
O=C(CCN1CCCC1c1cccc2c1OCCO2)N1CCOCC1 (centres undefined)	50.18
CCC1CN(CC(=O)NCCN2CCCCCC2)c2ccccc2S1 (centres undefined)	66.18
COc1cccc(CN(C)C(=O)Nc2ccc3c(c2)OCCO3)c1	-19.53 & -3.634
O=C(CCC(=O)N1CCOCC1c1ccccc1)c1cccs1 (centres undefined)	7.837 & 12.98
CCOc1ccc(CNC(=O)N(C)CC(C)(C)O)cc1C	14.65
CC(C(=O)N1CCN(c2cnccn2)CC1)n1cncn1 (centres undefined)	-18.6
CCNC(=O)N1CCC2(C1)c1ccccc1S(=O)(=O)N2CCC(C)C (centres undefined)	-1.891
O=C(O)C(F)(F)F.[H][C@@]12CN(Cc3cccs3)C[C@]1([H])C(=O)N(c1cncnc1)C2	-6.401
Cc1nc(C2CCCN2C(=O)c2cc3c(s2)CCCC3)no1 (centres undefined)	3.538
CC(C)(C)SCC(=O)NCCc1csc(N2CCCC2)n1	7.485
CSCCC1c2nc[nH]c2CCN1Cc1ccccc1C#N (centres undefined)	-14.61
COCCc1noc(C2CCN(S(=O)(=O)c3cccs3)CC2)n1	-25.89
CC(C(=O)N1CCC(Cc2ccc(F)cc2)CC1)n1ccnc1 (centres undefined)	14.44

The first 6 entries again:

CC(NC(=O)CNc1cc2c(cc1Cl)NC(=O)CO2)c1ccco1 (centres undefined) read -23.33%.
CCN(CC)c1ccc(C(=O)NCC2(C(N)=O)CCOCC2)cn1 read -36.86% & -2.658%.
CC(C)Cc1nc(CN(C)c2cc(C(C)C)nc3ccnn23)no1 read 39.14%.
CCOCCNc1nc(-c2ccncc2)nc2c1CCNCC2 read -12.9% & 1.537%.
c1ccc(CN2CCN(c3ccc4nncn4n3)CC2)nc1 read 27.9%.
COCCC(=O)N1CCCC(CCC(=O)NCc2ccccc2F)C1 (centres undefined) read -1.185%.